PubChem BioAssay AID624099 | ICCB-Longwood, 2012
Purpose: 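Knock-downs relieving repression by E2 of an HPV18 LCR luciferase reporter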 (primary screen). System: human C33A cervical carcinoma cells (HPV-negative) stably expressing BPV1 E2 and an HPV18 LCR luciferase reporter. Knock-down reagent: siRNA pool against human genes, 40 nM. Time to read-out: 72 h. Measurement: 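HPV18 LCR reporter light per well, converted to plate-wise z-scores that exclude control wells, and averaged over triplicate plates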. Reading the numbers: mean z-score and z-score: higher = stronger reporter signal, weaker E2 silencing. Active means: 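Hit if mean z-score reaches 2 and two or more of three replicate z-scores also reach 2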.
Here is an unselected part of about 21,000 reagents tested. 497 of them (2.4%) were called active. 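Higher z means weaker E2 silencing; only reporter increases were scored, and knock-downs that hurt cell survival may mask genuine repressor factors.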

gene	mean z-score	z-score, replicate A	z-score, replicate B	z-score, replicate C	call
NOC3L (NOC3 like DNA replication regulator)	-0.29	0.05	-0.55	-0.36	inactive
SNX32 (sorting nexin 32)	-0.2	-0.43	-0.48	0.3	inactive
RRAGD (Ras related GTP binding D)	0.66	0.57	0.51	0.91	inactive
IFNW1 (interferon omega 1)	-0.98	-0.92	-0.93	-1.08	inactive
PEDS1-UBE2V1 (PEDS1-UBE2V1 readthrough)	0.65	0.98	0.14	0.82	inactive
COPS7B (COP9 signalosome subunit 7B)	0.9	0.85	1.04	0.8	inactive
ATP6AP1 (ATPase H+ transporting accessory protein 1)	-0.98	-1.19	-0.8	-0.94	inactive
HMGN4 (high mobility group nucleosomal binding domain 4)	-0.75	-0.31	-1.02	-0.92	inactive
ARMC8 (armadillo repeat containing 8)	-0.6	-0.73	-0.79	-0.29	inactive
GML (glycosylphosphatidylinositol anchored molecule like)	1.44	1.55	1.36	1.41	inactive
YIPF6 (Yip1 domain family member 6)	0.36	0.19	0.04	0.85	inactive
COL25A1 (collagen type XXV alpha 1 chain)	0.24	0.01	0.57	0.13	inactive
RBAK (RB associated KRAB zinc finger)	1.29	1.13	1.15	1.61	inactive
RBBP8 (RB binding protein 8, endonuclease)	0.82	1.01	0.76	0.7	inactive
LOC389904 (retired record)	0.06	0.29	-0.09	-0.01	inactive
LGALS2 (galectin 2)	1.2	1.55	0.95	1.1	inactive
CHST14 (carbohydrate sulfotransferase 14)	0.37	0.33	0.38	0.39	inactive
RHBDF2 (rhomboid 5 homolog 2)	-0.81	-0.63	-1.07	-0.74	inactive
RGS20 (regulator of G protein signaling 20)	-0.48	-0.68	-0.23	-0.51	inactive
MCIDAS	0.43	0.48	0.41	0.39	inactive
LOC401056 (retired record)	0.61	0.4	0.57	0.87	inactive
ACTL8 (actin like 8)	0.58	1.16	0.54	0.04	inactive
PPM1M (protein phosphatase, Mg2+/Mn2+ dependent 1M)	0.84	0.46	1.39	0.68	inactive
ELMO1 (engulfment and cell motility 1)	-0.97	-0.48	-1.33	-1.11	inactive
ACOT11 (acyl-CoA thioesterase 11)	1.57	1.43	1.55	1.73	inactive
CIDEC (cell death inducing DFFA like effector c)	0.72	0.28	0.54	1.34	inactive
SPATA31D5P (SPATA31 subfamily D member 5, pseudogene)	-0.01	0.06	0.09	-0.19	inactive
RPS4Y1 (ribosomal protein S4 Y-linked 1)	1.02	1.26	0.9	0.89	inactive
EMX1 (empty spiracles homeobox 1)	0.53	0.64	0.34	0.63	inactive
SLC16A11	1.54	1.34	1.34	1.93	inactive
GNA11 (G protein subunit alpha 11)	-0.11	0.1	-0.12	-0.31	inactive
ETS2 (ETS proto-oncogene 2, transcription factor)	1.15	1.35	0.92	1.16	inactive
AGXT2 (alanine--glyoxylate aminotransferase 2)	-0.59	-0.52	-0.3	-0.96	inactive
SLC6A2	0.92	0.86	0.77	1.13	inactive
LY6H (lymphocyte antigen 6 family member H)	-0.02	0.07	0	-0.12	inactive
LOC389907 (retired record)	-0.31	-0.41	-0.2	-0.31	inactive
CLSTN1 (calsyntenin 1)	0.91	0.94	1.06	0.73	inactive
TEAD4 (TEA domain transcription factor 4)	0.9	0.81	1.23	0.67	inactive
P2RY10 (P2Y receptor family member 10)	-0.81	-0.65	-0.68	-1.1	inactive
LOC283034 (retired record)	-0.34	-0.36	-0.67	0.02	inactive
TOP2A (DNA topoisomerase II alpha)	0.49	0.43	0.54	0.51	inactive
TPK1 (thiamin pyrophosphokinase 1)	-1.17	-1.27	-1.27	-0.98	inactive
PAGE2 (PAGE family member 2)	-0.38	-0.65	-0.16	-0.32	inactive
SLC38A8	0.1	0.32	0.25	-0.27	inactive
LOC402275 (retired record)	0.34	0.44	0.42	0.17	inactive
OR51G2 (olfactory receptor family 51 subfamily G member 2)	-0.4	-0.56	-0.18	-0.45	inactive
CYFIP1 (cytoplasmic FMR1 interacting protein 1)	0.47	0.8	0.77	-0.18	inactive
MTBP (MDM2 binding protein)	-0.55	-0.45	-0.57	-0.63	inactive
PGM5 (phosphoglucomutase 5)	-0.48	-0.47	-0.32	-0.67	inactive
ZNF658 (zinc finger protein 658)	-0.6	-0.78	-0.48	-0.53	inactive
TPMT (thiopurine S-methyltransferase)	0.83	0.05	0.96	1.48	inactive
GGT7 (gamma-glutamyltransferase 7)	-1.13	-1.41	-0.95	-1.03	inactive
CEACAM16 (CEA cell adhesion molecule 16, tectorial membrane component)	-0.91	-0.77	-1.02	-0.94	inactive
IPO9 (importin 9)	0.29	-0.03	0.35	0.54	inactive
PNPLA1 (patatin like domain 1, omega-hydroxyceramide transacylase)	-1.58	-1.64	-1.78	-1.33	inactive
MLNR (motilin receptor)	1.01	0.92	1.23	0.87	inactive
ATP12A (ATPase H+/K+ transporting non-gastric alpha2 subunit)	-0.48	-0.3	-0.51	-0.62	inactive

Laid out differently: results already given.
| gene | mean z-score | z-score, replicate A | z-score, replicate B | z-score, replicate C | call |
| --- | --- | --- | --- | --- | --- |
| PGM5 (phosphoglucomutase 5) | -0.48 | -0.47 | -0.32 | -0.67 | inactive |
| ZNF658 (zinc finger protein 658) | -0.6 | -0.78 | -0.48 | -0.53 | inactive |
| TPMT (thiopurine S-methyltransferase) | 0.83 | 0.05 | 0.96 | 1.48 | inactive |
| GGT7 (gamma-glutamyltransferase 7) | -1.13 | -1.41 | -0.95 | -1.03 | inactive |
| CEACAM16 (CEA cell adhesion molecule 16, tectorial membrane component) | -0.91 | -0.77 | -1.02 | -0.94 | inactive |
| IPO9 (importin 9) | 0.29 | -0.03 | 0.35 | 0.54 | inactive |
